Article PMC9600549
For at least one entry, the source does not settle the construct or the ends of the probe.

Tests used:
Assay in all cases: EMSA
[1] = molecular target: RcrR wild-type (Escherichia coli CFT073 (UPEC)) (UniProt A0A0H2VAS2); settings: recombinant protein, protein details: N-terminal His6 (pET28a), probe letters rebuilt from the primers and the genome
[2] = molecular target: RcrR-C153S (Escherichia coli CFT073 (UPEC)) (UniProt A0A0H2VAS2); settings: reduced, comparable to wild type; recombinant protein; protein details: N-terminal His6 (pET28a); probe letters rebuilt from the primers and the genome
[3] = molecular target: RcrR-C88S (Escherichia coli CFT073 (UPEC)) (UniProt A0A0H2VAS2); settings: reduced, comparable to wild type; recombinant protein; protein details: N-terminal His6 (pET28a); probe letters rebuilt from the primers and the genome

Measured: binding result

CATGAGCAGTTTCTCTTTATGTTTGCGATACTACACATGCTACCTTCTGATTGGTAGGCTTGCAAGATGGATTTATTTAAAATAAGAGGGATGATTTGTATCAAATTGTTTTGTATTTTTGTGTTTTGTATCACTGAGGTGAAGTTGTAAGATCTGGCCCTCTGCGAGGTTGGCTCTGTCGAAAGGAACAGGTGACGAGAGTTAACATCGTTGCCTTGGCTGCATGGGGGATATGTAGCTACCCCCTGATATTTCCGCCACGGAAGCCAATATGAACAACAATAACAATACGCCTCGTTTCCAGTATGCTTCATGTCGGATATTTTGTAAGCGCTATGTACTTCCCGGGACGCTTATCTTTTAGCCGTAGCTGGTAGTGCAATAAAAGCCTGGCAGCAATCCAGGCCTCTACGTTCTAAGAATCAACTGTCAG (double strand) [PrcrARB promoter fragment]
binds: [1]; NCT-oxidized, then 2 mM DTT | [1]; pretreated with 5-fold H2O2 | [1]; reduced | [2] | [3]
